Measured values taken from publication PMC7034945 (RSC Advances, 2019).

Settings: HPLC

water solubility pH = 2.0, test 1 (pH 2.0 phosphate buffer, first test): 5.94 μg mL^−1 | water solubility pH = 2.0, test 2 (pH 2.0 phosphate buffer, second test): 5.85 μg mL^−1 | water solubility pH = 7.0, test 1 (pH 7.0, first test): 3.23 μg mL^−1 | water solubility pH = 7.0, test 2 (pH 7.0, second test): 3.29 μg mL^−1 | water solubility pH = 7.4, test 1 (pH 7.4 phosphate buffer, first test): 3.01 μg mL^−1 | water solubility pH = 7.4, test 2 (pH 7.4 phosphate buffer, second test): 3.10 μg mL^−1
Substance: (S)-N-(1-((4-Methoxyphenyl)(methyl)amino)-1-oxo-3-phenylpropan-2-yl)-3-(1-(3-(thiophen-3-yl)propyl)-1H-1,2,3-triazol-4-yl)benzamide [III-15h]
